Earlier results, collected in US20210130445A1 (priority 2019, published 2021).

System: female Swiss-Webster mice
Conditions: cited from earlier work

Question: Which results are given for abobotulinumtoxinA?
Answer: units approximately equal in potency to one unit of onabotulinumtoxinA, as suggested by comparative studies (comparative studies): three to four; units approximately equal in potency to one unit of BOTOX (onabotulinumtoxinA) (potency unit comparison of commercial formulations): 3 to 5 units
